Data reported in patent US20230002478A1 (TWIST BIOSCIENCE, published 2023).

Target: biotinylated D614G SARS-CoV-2 spike trimer (SARS-CoV-2)
Test: AlphaLISA, inhibition of ACE2-muFc / biotinylated spike complex

B1: bispecific monoclonal antibody 493-004 (bispecific antibody)
chain: EVQLVESGGGLVQPGGSLRLSCAASGFTFSPSWMGWFRQAPGKEREFVATINEYGGRNYADSVKGRFTISADNSKNTAYLQMNSLKPEDTAVYYCARVDRDFDYWGQGTLVTVSSGGGGS[no letters for human IgG1 Fc with C220S (EU numbers)]GGGSGGGGSASEVQLVESGGGLVQPGGSLRLSCAASGSTFSINAMGWFRQAPGKEREFVAGITSSGGYTNYADSVKGRFTISADNSKNTAYLQMNSLKPEDTAVYYCAADGVPEYSDYASGPVWGQGTLVTVSS
Binder B1 has an IC50 of 2.1 nM.
